A mixed list of measured activities; the numbers were collected in NIAID ChemDB.

Common to all: tests in culture; organism: Candida albicans; read-out: MIC

Lines come from different laboratories, so protocols vary. Blank or dashed fields: not listed here. Two numbers with a dash give a range or band.

{"compound": "O=C1/C(=C/c2ccccc2)CN(C(=O)/C=C/c2ccc([N+](=O)[O-])cc2)C/C1=C\\c1ccccc1", "strain": "1 clinical isolate", "value": ">32 µg/mL"}
{"compound": "C[C@@H]1CCC2(OC1)O[C@H]1C[C@H]3[C@@H]4CC=C5C[C@@H](C6O[C@H](CO)[C@@H](O[C@@H]7O[C@@H](C)[C@H](O)[C@@H](O)[C@H]7O)[C@H](O)[C@H]6O[C@@H]6O[C@@H](C)[C@H](O)[C@@H](O)[C@H]6O)CC[C@]5(C)[C@H]4CC[C@]3(C)[C@H]1[C@@H]2C", "value": "12.5 µg/mL"}
{"compound": "C[C@H]1[C@H](O)[C@@H](C)/C=C/C=C/C=C/C=C/C=C/C=C/C=C/[C@H](O[C@@H]2O[C@H](C)[C@@H](O)[C@H](N)[C@@H]2O)C[C@@H]2O[C@](O)(C[C@@H](O)C[C@@H](O)CC[C@H](O)[C@@H](O)C[C@@H](O)CC(=O)O[C@H]1C)C[C@H](O)[C@H]2C(=O)O", "strain": "ATCC 64549", "value": "0.4 µg/mL"}
{"compound": "Cc1sc2c(C)c3[nH]c4ccccc4c3cc2c1C", "strain": "CECT 1394", "value": "0.05 µg/mL"}
{"compound": "CCCOC(=O)/C=C\\C(=O)OCCC", "strain": "ATCC 10231", "value": ">100 µg/mL"}
{"compound": "CN[C@@H]1[C@H](O[C@@H]2OC[C@@H](O)[C@H](O)[C@H]2O)[C@@H](O)[C@H](O[C@H]2c3cc(C)c(C(=O)N[C@H](C)C(=O)O)c(O)c3-c3c(cc4c(c3O)C(=O)c3cc(OC)cc(O)c3C4=O)[C@@H]2O)O[C@@H]1C", "strain": "A9540", "value": "12.5 µg/mL"}
{"compound": "COc1ccc(C(=O)/C=C/c2ccc(C(=O)O)cc2)cc1", "strain": "1 clinical isolate", "value": ">32 µg/mL"}
{"compound": "Clc1ccc(CC[C@@H](Cn2ccnc2)Sc2c(Cl)cccc2Cl)cc1", "value": "5 µg/mL"}
{"compound": "O=C(O)c1ccccc1O", "value": ">50 µM"}
{"compound": "CN[C@@H]1[C@H](O[C@@H]2OC[C@@H](O)[C@H](O)[C@H]2O)[C@@H](O)[C@H](O[C@H]2c3cc(C)c(C(=O)OCC(=O)O)c(O)c3-c3c(cc4c(c3O)C(=O)c3cc(OC)cc(O)c3C4=O)[C@@H]2O)O[C@@H]1C", "strain": "A9540", "value": ">100 µg/mL"}
{"compound": "C=C[C@]1(C)C=C2C(=O)c3c(NC=O)cccc3C(C)(C)[C@H]2C[C@H]1O", "value": ">100 µM"}
{"compound": "CCCCCCCCCCOCCC(=O)O", "value": "500 µM"}
{"compound": "CN[C@@H]1[C@H](O[C@@H]2OC[C@@H](O)[C@H](O)[C@H]2O)[C@@H](O)[C@H](O[C@H]2c3cc(C)c(C(=O)N4CCC[C@@H]4C(=O)O)c(O)c3-c3c(cc4c(c3O)C(=O)c3cc(OC)cc(O)c3C4=O)[C@@H]2O)O[C@@H]1C", "strain": "A9540", "value": ">100 µg/mL"}
{"compound": "NC(=O)c1ncn([C@@H]2O[C@H](CO)[C@@H](O)[C@H]2O)c1Br", "value": "0.15 µM"}
{"compound": "O=c1[nH]sc2cc(C(F)(F)F)ccc12", "strain": "ATCC 2091", "value": "7.5 µg/mL"}
{"compound": "COc1ccnc(C(=O)NCCCCCCCCCCCCCCCC2COC(=O)C(Cc3ccccc3)C(OC(=O)C(C)C)C(C)OC2=O)c1O", "strain": "IFO1061", "value": ">100 µg/mL"}
{"compound": "CN[C@@H]1[C@H](O[C@@H]2OC[C@@H](O)[C@H](O)[C@H]2O)[C@@H](O)[C@H](O[C@H]2c3cc(C)c(C(=O)N[C@@H](CN)C(=O)O)c(O)c3-c3c(cc4c(c3O)C(=O)c3cc(OC)cc(O)c3C4=O)[C@@H]2O)O[C@@H]1C", "strain": "A9540", "value": ">100 µg/mL"}
{"compound": "CCCC1=[N+](CCC)CCc2cc(O)c(O)cc21", "strain": "IFO1061", "value": ">500 µg/mL"}
{"compound": "C/C=C\\C(C)=C\\[C@H](C)C(=O)C[C@H](O)CC1CC(=O)NC(=O)C1", "strain": "IFO 1594", "value": ">100 µg/mL"}
{"compound": "Nc1[nH]c(=O)ncc1F", "strain": "ATCC 90029", "value": ">64 µg/mL"}
{"compound": "CCCC1=[N+](Cc2ccccc2)CCc2cc(OCc3ccccc3)c(OCc3ccccc3)cc21", "strain": "IFO1061", "value": "3.9 µg/mL"}
{"compound": "COc1ccc(C(=O)/C=C/c2cc3ccccc3nc2Cl)c(OC)c1", "strain": "ATCC 10231", "value": ">50 µg/mL"}
{"compound": "COC(=O)[C@]1(C)CCC[C@]2(C)c3ccc(C(C)C)cc3-c3[nH]c4c(Cl)cccc4c3C12", "strain": "CGMCC 2.2086", "value": ">100 µg/mL"}
{"compound": "CCOc1ccc(Cc2c3cc(OCC)c(OCC)cc3cc(C)[n+]2C)cc1OCC", "strain": "IFO1061", "value": ">500 µg/mL"}
{"compound": "C[C@@H](c1nc(-c2ccc(C#N)cc2)cs1)[C@](O)(Cn1cnnc1)c1ccc(F)cc1F", "strain": "Isogenic isolate 8 (25X)", "value": "≤0.008 µg/mL"}
{"compound": "COc1ccc(/C=C/C(=O)c2ccccc2)c(OC)c1", "strain": "ATCC 10231", "value": ">50 µg/mL"}
{"compound": "CCCC[C@H]1C(=O)O[C@H](C)C(CCCCCCCNC(=O)c2cccc(NC=O)c2O)C(=O)O[C@@H](C)[C@@H]1OC(=O)CC(C)C", "strain": "IFO1061", "value": "0.39 µg/mL"}
{"compound": "COc1ccc(Cc2c3ccc(OC)c(OC)c3cc[n+]2C)cc1OC", "strain": "IFO1061", "value": ">500 µg/mL"}
{"compound": "COC(=O)C(C(=O)OC)C(CC(=O)c1ccccc1)c1cccc(OC)c1OC", "strain": "ATCC 10231", "value": ">50 µg/mL"}
{"compound": "O=C1/C(=C/c2ccccc2)CN(C(=O)c2ccc(/C=C/C(=O)c3ccc(Cl)cc3)cc2)C/C1=C\\c1ccccc1", "strain": "1 clinical isolate", "value": ">32 µg/mL"}
{"compound": "COC(=O)[C@]1(C)CCC[C@]2(C)c3ccc(C(C)C)cc3-c3[nH]c4ccc(Cl)cc4c3C12", "strain": "CGMCC 2.2086", "value": ">100 µg/mL"}
{"compound": "CO[C@@H]1CC[C@H](O)c2c1oc1c3c4c(c(O)c1c2=O)-c1c(cc2cc(C)n(N)c(=O)c2c1O)C[C@H]4OCO3", "strain": "6 strains", "value": "~55 µg/mL"}
{"compound": "c1c[nH]cn1", "value": ">50 µM"}
{"compound": "COC(=O)[C@@H](Br)[C@@H](F)C(=O)OC", "strain": "ATCC 10231", "value": "70 µg/mL"}
{"compound": "Cc1c2cc(O)c(O)cc2cc[n+]1C", "strain": "IFO1061", "value": ">500 µg/mL"}
{"compound": "COc1cc2ccc(=O)oc2cc1O", "strain": "ATCC 14053", "value": "500 µg/mL"}
{"compound": "Clc1ccc(C(Cn2ccnc2)OCc2csc3c(Cl)cccc23)c(Cl)c1", "strain": "81 strains", "value": "1.14 µg/mL"}
{"compound": "COc1ccc2c(c1OC)C(=O)O[C@@H]2[C@H]1c2cc3c(cc2CCN1C)OCO3", "strain": "ATCC 10231", "value": ">1000 µg/mL"}
{"compound": "CCCCCOC(=O)/C=C/C(=O)OCCCCC", "strain": "ATCC 10231", "value": ">100 µg/mL"}
{"compound": "CCCC1c2cc(OCc3ccccc3)c(OCc3ccccc3)cc2CCN1Cc1ccccc1", "strain": "IFO1061", "value": ">500 µg/mL"}
{"compound": "CN[C@@H]1[C@H](O[C@@H]2OC[C@@H](O)[C@H](O)[C@H]2O)[C@@H](O)[C@H](O[C@H]2c3cc(C)c(C(=O)NCS(=O)(=O)O)c(O)c3-c3c(cc4c(c3O)C(=O)c3cc(OC)cc(O)c3C4=O)[C@@H]2O)O[C@@H]1C", "strain": "A9540", "value": "50 µg/mL"}
{"compound": "CCCCOC(=O)/C=C\\C(=O)OCCCC", "strain": "ATCC 10231", "value": ">100 µg/mL"}
{"compound": "Cc1ccc(C(=O)/C=C/c2ccc(C(=O)N3C/C(=C/c4ccccc4)C(=O)/C(=C\\c4ccccc4)C3)cc2)cc1C", "strain": "1 clinical isolate", "value": ">32 µg/mL"}
{"compound": "O=c1[nH]cc(F)c(=O)[nH]1", "strain": "ATCC 10231", "value": ">100 µg/mL"}
{"compound": "CN[C@@H]1[C@H](O[C@@H]2OC[C@@H](O)[C@H](O)[C@H]2O)[C@@H](O)[C@H](O[C@H]2c3cc(C)c(C(=O)N(C)CC(=O)O)c(O)c3-c3c(cc4c(c3O)C(=O)c3cc(OC)cc(O)c3C4=O)[C@@H]2O)O[C@@H]1C", "strain": "A9540", "value": ">100 µg/mL"}
{"compound": "CCCCOC(=O)C1(O)CC(OC(C)=O)C(OC(=O)/C=C/c2ccc(OC(C)=O)c(OC)c2)C(OC(C)=O)C1", "strain": "ATCC 10231", "value": ">1000 µg/mL"}
{"compound": "CCCC[C@H]1C(=O)O[C@H](C)[C@H](NC(=O)c2cccc(NC=O)c2O)C(=O)O[C@@H](C)[C@@H]1OC(=O)CC(C)C", "strain": "IFO1061", "value": "0.1 µg/mL"}
{"compound": "CCCCCCCCCCCOCC(=O)O", "value": "500 µM"}
{"compound": "COc1cc(/C=C/C(=O)N2C/C(=C\\c3ccccc3)C(=O)/C(=C/c3ccccc3)C2)cc(OC)c1OC", "strain": "1 clinical isolate", "value": ">32 µg/mL"}
{"compound": "O=c1[nH]sc2cccc(F)c12", "strain": "ATCC 2091", "value": "20 µg/mL"}
{"compound": "COc1cc2ccc(=O)oc2cc1OC/C=C(\\C)CCC=C(C)C", "strain": "ATCC 14053", "value": "500 µg/mL"}
{"compound": "C=CC(O)C#CC#CC(O)C(O)/C=C/CCCCCC", "strain": "105", "value": "200–400 µg/mL"}
{"compound": "O=C(O)c1ccc(/C=C/C(=O)c2ccc(O)cc2)cc1", "strain": "1 clinical isolate", "value": ">32 µg/mL"}
{"compound": "COc1ccc(C(=O)/C=C/c2ccc(N(C)C)cc2)cc1OC", "strain": "ATCC 10231", "value": ">50 µg/mL"}
{"compound": "CCCCn1sc2cccc(C(F)(F)F)c2c1=O", "strain": "ATCC 2091", "value": "30 µg/mL"}
{"compound": "COC(=O)[C@]1(C)CCC[C@]2(C)c3ccc(C(C)C)cc3-c3[nH]c4c(F)cccc4c3C12", "strain": "CGMCC 2.2086", "value": "31.2 µg/mL"}
{"compound": "N[C@@H](Cc1ccc(N(CCCl)CCCl)cc1)C(=O)O", "strain": "1 clinical isolate", "value": ">32 µg/mL"}
{"compound": "COC(=O)[C@]1(C)CCC[C@]2(C)c3ccc(C(C)C)cc3-c3[nH]c4ccc([N+](=O)[O-])cc4c3C12", "strain": "CGMCC 2.2086", "value": "31.2 µg/mL"}
{"compound": "Cc1sc2c(C)c3[nH]c4cccnc4c3cc2c1C", "strain": "CECT 1394", "value": "25 µg/mL"}
{"compound": "O=c1[nH]sc2cccc(C(F)(F)F)c12", "strain": "ATCC 2091", "value": "30 µg/mL"}
{"compound": "CCCCCCOC(=O)C(F)C(Br)C(=O)OCCCCCC", "strain": "ATCC 10231", "value": ">100 µg/mL"}
{"compound": "C[C@@H]1CCC2(OC1)O[C@H]1C[C@H]3[C@@H]4CC=C5C[C@@H](C6O[C@H](CO)[C@@H](O[C@@H]7O[C@@H](C)[C@H](O[C@H]8O[C@@H](C)[C@H](O)[C@@H](O)[C@H]8O)[C@@H](O)[C@H]7O)[C@H](O)[C@H]6O[C@@H]6O[C@@H](C)[C@H](O)[C@@H](O)[C@H]6O)CC[C@]5(C)[C@H]4CC[C@]3(C)[C@H]1[C@@H]2C", "value": "100 µg/mL"}
{"compound": "COc1ccnc(C(=O)NCCCCCCCCCCCC2COC(=O)C(Cc3ccccc3)C(OC(=O)C(C)C)C(C)OC2=O)c1O", "strain": "IFO1061", "value": ">100 µg/mL"}
{"compound": "COc1ccc(Cc2cc3cc(OC)c(OC)cc3c[nH+]2)cc1OC", "strain": "IFO1061", "value": ">500 µg/mL"}
{"compound": "CC(C)=CCc1c(O)ccc2ccc(=O)oc12", "strain": "ATCC 14053", "value": "250 µg/mL"}
{"compound": "CCCOc1cc2ccnc(CCC)c2cc1OCCC", "strain": "IFO1061", "value": ">500 µg/mL"}
{"compound": "COc1ccc2c(c1OC)CN1CCc3cc4c(cc3[C@@H]1C2)OCO4", "strain": "ATCC 10231", "value": ">1000 µg/mL"}
{"compound": "CCOC(=O)/C=C/C(=O)OCC", "strain": "ATCC 10231", "value": ">100 µg/mL"}
{"compound": "CCCOc1cc2cc[n+](C)c(CCC)c2cc1OCCC", "strain": "IFO1061", "value": ">500 µg/mL"}

For reference, 8 entries again:

compound | strain | value
C[C@@H]1CCC2(OC1)O[C@H]1C[C@H]3[C@@H]4CC=C5C[C@@H](C6O[C@H](CO)[C@@H](O[C@@H]7O[C@@H](C)[C@H](O[C@H]8O[C@@H](C)[C@H](O)[C@@H](O)[C@H]8O)[C@@H](O)[C@H]7O)[C@H](O)[C@H]6O[C@@H]6O[C@@H](C)[C@H](O)[C@@H](O)[C@H]6O)CC[C@]5(C)[C@H]4CC[C@]3(C)[C@H]1[C@@H]2C |  | 100 µg/mL
COC(=O)[C@@H](Br)[C@@H](F)C(=O)OC | ATCC 10231 | 70 µg/mL
O=C(O)c1ccc(/C=C/C(=O)c2ccc(O)cc2)cc1 | 1 clinical isolate | >32 µg/mL
CN[C@@H]1[C@H](O[C@@H]2OC[C@@H](O)[C@H](O)[C@H]2O)[C@@H](O)[C@H](O[C@H]2c3cc(C)c(C(=O)OCC(=O)O)c(O)c3-c3c(cc4c(c3O)C(=O)c3cc(OC)cc(O)c3C4=O)[C@@H]2O)O[C@@H]1C | A9540 | >100 µg/mL
COc1ccc(C(=O)/C=C/c2ccc(N(C)C)cc2)cc1OC | ATCC 10231 | >50 µg/mL
CCCOC(=O)/C=C\C(=O)OCCC | ATCC 10231 | >100 µg/mL
COc1ccc(Cc2c3ccc(OC)c(OC)c3cc[n+]2C)cc1OC | IFO1061 | >500 µg/mL
COC(=O)C(C(=O)OC)C(CC(=O)c1ccccc1)c1cccc(OC)c1OC | ATCC 10231 | >50 µg/mL